# Data as given in patent US20050227956A1, “Control of mold growth on wood” (priority 2004, published 2005).
# Legend:
# Test in all cases: Six-well plate screening test
# Format in all cases: cell-based
# Settings in all cases: 10 days of incubation at room temperature
# [1] = test system: Aureobasidium pullulans
# [2] = test system: Alternaria alternata
# [3] = test system: Cladosporium cladosporioides
# [4] = test system: Aspergillus niger
# [5] = test system: Stachybotrus charatrum
# [6] = test system: Penicillium funiculosum
smiles,measurement,setting,value
O=C1C2CC=CCC2C(=O)N1SC(Cl)(Cl)C(Cl)Cl (stereo not drawn),Minimum Inhibitory Concentrations (MIC),[1],>100 mg/kg
same,Minimum Inhibitory Concentrations (MIC),[2],>100 mg/kg
same,Minimum Inhibitory Concentrations (MIC),[3],>100 mg/kg
same,Minimum Inhibitory Concentrations (MIC),[4],10 mg/kg
same,Minimum Inhibitory Concentrations (MIC),[5],25 mg/kg
same,Minimum Inhibitory Concentrations (MIC),[6],>100 mg/kg
